Key:
[1] = tested on: human peripheral blood lymphocytes infected with HIV; experiment: Living cells in HIV-infected PBL system (Test Example 7); format: cell-based; settings: 200 μg/ml
Procedure: The anti-HIV effects of test substances on human peripheral blood lymphocytes infected with HIV were determined.
After blood is collected from a vein by a syringe whose interior wall is wetted with heparin, PBL is separated from the blood with Ficol. After this PBL cell is inoculated on a 25-cm^2 culture flask containing 10 ml of a RPMI 1640 medium (including IL-2) added with 20% of a fetal bovine serum so as to contain 7×10^5 cells/ml therein, 40 μl (1 mg/ml) of PHA are added to culture the cells for 2 days. After 2 days, the cells are washed. Thereafter, they are used in assaying the anti-HIV effects of the test substances as PBL cells in an HIV-uninfected system for part of them, and in an HIV-infected system for the remainder. The PBL cells are inoculated on a 25-cm^2 culture flask added with 5 ml of the above medium so as to contain 2×10^6 cells therein. Then, 500 μl (final concentration: 200 μg/ml) of S-HSA-EDC-Hemin are given thereto so as to conduct culture at 37° C. in the presence of 5% CO2, thereby assaying the cytotoxic effect of the test substance. With respect to the infected system on the other hand, 0.5 ml of HTLV-IIIB (10^7 TCID50 /ml) obtained from a culture supernatant of an HIV-persistently infected strain, MOLT-4/HTLV-IIIB is inserted in the PBL cells to culture them for 2 days. Thereafter, the cells are washed, and then inoculated on a 25-cm^2 culture flask added with 5 ml of the medium so as to contain 2×10^6 cells therein. In the same manner as described above, S-HSA-EDC-Hemin is given thereto, thereby conducting culture at 37° C. in the presence of 5% CO2. After 4 days, the number of cells are counted to calculate the number of HIV envelope protein gp120 positive cells, analysis making use of FACS and the quantity of P24 protein produced.

[2] = tested on: Molt-4/C18 cells infected with Molt-4/HTLV-IIIB culture supernatant; experiment: Inhibiting effect on cytopathy, MTT assay (Test Example 8 (2)); format: cell-based, human; settings: 4 days, positive control 27
Procedure: (2) The inhibiting effects of test substances on the formation of multinucleated giant cells and on cytopathy in a Molt-4/C18 cell-infected system were investigated.
Molt-4/C18 cells in a logarithmic growth phase were inoculated in a proportion of 2×10^4 cells/well (20 μl) on a 96-well flat-bottom plate, and 30 μl of a culture supernatant of Molt-4/HTLV-IIIB cells were added. Then, solutions of the test substances in various concentrations were separately added in an amount of 50 μl, followed by their culture at 37° C. under conditions of 5% CO2. To wells for a positive control, 50 μl of a culture medium were added in place of the solution of each test substance, while to wells for a negative control, 30 μl of the culture medium were added instead of the culture supernatant. Defining the day the culture was started as Day 0, the culture was continuously conducted for 4 days to observe a state of formation of multinucleated giant cells and to count the number of living cells by the MTT assay.

[3] = tested on: human peripheral blood lymphocytes (PBL), nonactivated; experiment: Cytotoxic effect on nonactivated PBL (Test Example 2); format: cell-based; settings: 4 days
[4] = tested on: human peripheral blood lymphocytes (PBL), activated; experiment: Cytotoxic effect on activated PBL (Test Example 2); format: cell-based; settings: 24 hours then 2 days, 4320 min
Procedure: (§1) The killing effect and cytotoxic effect of a test substance were determined using human peripheral blood lymphocytes and MOLT-4 cells.
Human peripheral blood lymphocytes (PBL) were separated by a Ficol. Part of them were activated and the remainder was used without activation. The activation of PBL was conducted by culturing PBL (7×10^5 /ml/10 ml) for 4 days in the presence of IL-2 and phytohaemagglutinin (PHA) in a 25-cm^2 culture flask. After the activated PBL was adjusted to 4×10^5 /ml/10 ml and placed in a 25-cm^2 culture flask, 0.5 ml of the specimen solution was given in such a manner that the final concentration of S-HSA-EDC-Hemin reached a predetermined concentration, thereby culturing the cells for 24 hours. Thereafter, S-HSA-EDC-Hemin was removed, and the cells were cultured further for 2 days to count the number of living cells by the Trypan Blue dye exclusion method. With respect to the nonactivated PBL, PBL separated by Ficol was cultured for 4 days in the presence of S-HSA-EDC-Hemin in the various concentrations to count the number of living cells.

[5] = tested on: male ICR mice; experiment: One-administration toxicity test, intravenous (Test Example 9); format: in vivo
Procedure: A specimen was dissolved at a protein concentration of 100 mg/ml in a physiological saline (pH 7.0), and the solution was sterilely filtered through a membrane filter of 0.22 μm. The filtrate was intravenously administered to male ICR mice (Charles River Japan, Inc.) aged 5 weeks and 5 days through their tail veins. Doses of 690, 830, 1,000, 1,200 and 1,440 mg/kg were used in each group consisting of 5 mice. Defining the day of the administration as 0 day, their weights were measured on the second, fourth, seventh, tenth and fifteenth days. As a control, a group consisting of 5 mice given with no specimen was used.
In each of the toxicity tests, organ autopsy was conducted to all the mice on the fifteenth day after the administration.

[6] = tested on: MOLT-4; experiment: Killing effect (Test Example 2); format: cell-based, human; settings: 24 hours then 2 days, 4320 min
Procedure: as §1
(§2) After MOLT-4/HTLV-IIIB cells and MOLT-4 cells were dosed with S-HSA-EDC-Hemin in various concentrations and cultured for 24 hours, S-HSA-EDC-Hemin was removed, and the cells were cultured further for 2 days to count the number of living cells.

[7] = tested on: MOLT-4/HTLV-IIIB; experiment: Killing effect (Test Example 2); format: cell-based, human; settings: 24 hours then 2 days, 4320 min
Procedure: as §1, §2

S--HSA--EDC-Hemin: complex of succinylated human serum albumin and EDC-Hemin
living cells in HIV-infected system, % of the control ([1]; after 4 days): 32% | Total number of living cells, infected system ([1]; day 0 of culture): 2.0 ×10^6 | Total number of living cells, infected system ([1]; day 4 of culture (untreated 15.3)): 4.9 ×10^6 | Number of living cells ([2]; 3.125 μg/ml): 86% | Number of living cells ([2]; 6.25 μg/ml): 71% | Number of living cells ([2]; 12.5 μg/ml): 53% | Number of living cells ([2]; 25 μg/ml): 45% | living cells (control 100%) ([3]; 37.9 μg/ml): 98% | living cells (control 100%) ([3]; 75.8 μg/ml): 70% | living cells (control 100%) ([3]; 151.6 μg/ml): 70% | living cells (control 100%) ([3]; 606.4 μg/ml): 22% | living cells (control 100%) ([4]; 37.9 μg/ml): 88% | living cells (control 100%) ([4]; 75.8 μg/ml): 91% | living cells (control 100%) ([4]; 151.6 μg/ml): 81% | living cells (control 100%) ([4]; 227.4 μg/ml): 77% | living cells (control 100%) ([4]; 303.2 μg/ml): 29% | Morality (number of mice died/number of mice used) ([5]; intravenous, 690 mg/kg): 0/5 | Morality (number of mice died/number of mice used) ([5]; intravenous, 830 mg/kg): 0/5 | Morality (number of mice died/number of mice used) ([5]; intravenous, 1,000 mg/kg): 0/5 | Morality (number of mice died/number of mice used) ([5]; intravenous, 1,200 mg/kg): 0/5 | Morality (number of mice died/number of mice used) ([5]; intravenous, 1,440 mg/kg): 1/5 | dose showing no toxicity ([5]; intravenous, single, 21600 min): ≤ 1,200 mg/kg | changes in weight ([5]; single administration, doses of no toxicity (iv, ip, oral)): No abnormality | living cells (control 100%) ([6]; 75.8 μg/ml): 6% | living cells (control 100%) ([6]; 151.6 μg/ml): 0% | living cells (control 100%) ([6]; 303.2 μg/ml): 0% | living cells (control 100%) ([6]; 606.4 μg/ml): 0% | living cells (control 100%) ([7]; 75.8 μg/ml): 3% | living cells (control 100%) ([7]; 151.6 μg/ml): 0% | living cells (control 100%) ([7]; 303.2 μg/ml): 0% | living cells (control 100%) ([7]; 606.4 μg/ml): 0%

Source: patent US5629198A (priority 1991, dated 1997)
